Results on 1 compound are retold here after US8048862B2, “Macrocyclic inhibitors of hepatitis C virus replication” (priority 2008, dated 2011).

By UniProt entry, the sequences of proteins in these tests, tags left out. Residues count along the entry.
UniProt P27958, 1027-1657 limits assumed: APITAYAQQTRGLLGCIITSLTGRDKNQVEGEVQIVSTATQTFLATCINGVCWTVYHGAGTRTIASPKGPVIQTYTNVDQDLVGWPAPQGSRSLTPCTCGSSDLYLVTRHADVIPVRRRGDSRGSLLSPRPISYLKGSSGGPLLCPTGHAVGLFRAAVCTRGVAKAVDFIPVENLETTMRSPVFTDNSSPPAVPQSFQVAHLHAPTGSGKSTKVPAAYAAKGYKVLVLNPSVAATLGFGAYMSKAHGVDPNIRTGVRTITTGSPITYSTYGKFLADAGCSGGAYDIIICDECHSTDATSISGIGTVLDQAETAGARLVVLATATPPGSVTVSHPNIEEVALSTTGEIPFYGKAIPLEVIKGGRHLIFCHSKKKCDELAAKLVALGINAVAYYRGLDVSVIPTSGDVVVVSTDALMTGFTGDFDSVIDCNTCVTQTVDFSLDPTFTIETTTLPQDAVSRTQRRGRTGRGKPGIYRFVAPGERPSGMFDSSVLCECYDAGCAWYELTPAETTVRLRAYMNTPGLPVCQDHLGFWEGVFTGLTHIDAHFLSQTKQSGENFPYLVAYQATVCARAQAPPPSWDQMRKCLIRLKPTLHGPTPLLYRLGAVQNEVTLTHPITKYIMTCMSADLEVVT
UniProt P27958, 1658-1711 partner limits assumed: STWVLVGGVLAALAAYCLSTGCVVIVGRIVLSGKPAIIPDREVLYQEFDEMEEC

Structures were worked out from names or drawings and are uncertain.

One test addresses NS3/NS4 complexes (Hepatitis C virus genotype 1a, UniProt P27958). Put plainly: NS3/NS4 inhibition activity (IC50). In kind it is biochemical. To be noted: read-out: IC50 nM, Table 2. From the text: NS3-NS4 inhibition activity can be determined using known assay methods. For example, NS3/NS4 complexes may be formed and inhibitory concentrations of test compounds determined as described in U.S. Patent Application Publication Number 2007/0054842 paragraph numbers 1497-1509, which is incorporated herein by reference in its entirety. Similarly, hepatitis C replicon EC50 may be determined using known assay methods such as described in U.S. Patent Application Publication Number 2007/0054842 paragraph numbers 1510-1515. Assays may be conducted at ambient temperature (23° C.) in assay buffer containing 50 mM Tris-HCl, pH 7.5, 15% glycerol, 0.6 mM Lauryldimethylamine Oxide (LDAO), 25 μM NS4A peptide, and 10 mM Dithiothreitol (DTT).

In the next test the test system is hepatitis C replicon. The test can be described thus: hepatitis C replicon EC50. Type of test: cell-based, hepatitis C virus. To be noted: read-out: EC50 nM, Table 2. For orientation: In antiviral work, replicon cells carry a viral genome segment that copies itself.

Broadly, the IC50 is the concentration that inhibits the measured activity by half. The EC50 is the midpoint of the concentration-response curve. On to `COc1ccc2c(O[C@@H]3C[C@H]4C(=O)N[C@]5(C(=O)NS(=O)(=O)C6CC6)C[C@H]5/C=C\CCCCC[C@H](Nc5cccc(C#N)c5)C(=O)N4C3)cc(-c3nc(C(C)C)cs3)nc2c1C`, for which the 50% inhibitory concentration (IC50) on NS3/NS4 complexes is less than 10 nM. For the same compound, the half-maximal effective concentration (EC50) in the test on hepatitis C replicon was less than 10 nM.
